Molecular target: SARS-CoV-2 wild-type RBD (SARS-CoV-2) (UniProt P0DTC2)
Assay: BLI

Q: How did the koff turn out when LY-CoV555 was run?
A: Its koff is 0.000558 s⁻¹.

From publication PMC8866119
